# Measured values taken from patent US6407221.
# Molecular target: HIV gp120 envelope glycoprotein, membrane-bound (HIV-1 (HXB2 clone)) (UniProt P04578)
# Assay: cell-based or functional assay
substance,measurement,value
CD4-zeta chimeric receptor F2 (from UniProt P01730 26-395; P20963 8-30; P20963 52-163),"IL2 (pg/ml), Jurkat clone F2/1A11 coincubated with env-expressing 293 cells #13",222 pg/mL
same,"IL2 (pg/ml), Jurkat clone F2/1A11 coincubated with env-expressing 293 cells #18",206 pg/mL
same,"IL2 (pg/ml), Jurkat clone F2/1D1 coincubated with env-expressing 293 cells #13",81 pg/mL
same,"IL2 (pg/ml), Jurkat clone F2/1D1 coincubated with env-expressing 293 cells #18",95 pg/mL
CD4-zeta chimeric receptor F3 (from UniProt P01730 26-396; P01730 372-395; P20963 52-163),"IL2 (pg/ml), Jurkat clone F3/2.2 coincubated with env-expressing 293 cells #13",18 pg/mL
same,"IL2 (pg/ml), Jurkat clone F3/2.2 coincubated with env-expressing 293 cells #18",28 pg/mL
same,"IL2 (pg/ml), Jurkat clone F3/2.7 coincubated with env-expressing 293 cells #13",3 pg/mL
same,"IL2 (pg/ml), Jurkat clone F3/2.7 coincubated with env-expressing 293 cells #18",6 pg/mL
same,"specific lysis of Raji-gp120 targets by NK3.3 cells that carry the chimeric receptor, 51Cr release, effector:target 0.4:1 (% specific lysis above background)",20
